Experimental data reported in publication PMC7144106, “The Evolution of Pleconaril: Modified O-Alkyl Linker Analogs Have Biological Activity towards Coxsackievirus B3 Nancy” (Molecules, 2020).

Test system: coxsackievirus B3 strain Nancy
Test: Viral yield reduction assay against CVB3 in Vero cells
Type: cell-based
Settings: ratio of CC50 to IC50, CVB3 Nancy

Structure (SMILES) | SI
Cc1cc(-c2noc(C(F)(F)F)n2)ccc1SCCCc1cc(C(=O)N(C)C)no1 [Compound 7, N,N-dimethyl-5-(3-((2-methyl-4-(5-(trifluoromethyl)-1,2,4-oxadiazol-3-yl)phenyl)thio)propyl)isoxa-zole-3-carboxamide] | >122
CCOC(=O)c1cc(N2CCN(c3ccc(-c4noc(C(F)(F)F)n4)cc3C)CC2)on1 [Compound 28c, Ethyl 5-(4-(2-methyl-4-(5-(trifluoromethyl)-1,2,4-oxadiazol-3-yl)phenyl)piperazin-1-yl)isoxazole-3-carboxylate] | 1
CCOC(=O)c1cc(CCC(=O)Nc2ccc(-c3noc(C(F)(F)F)n3)cc2C)on1 [Compound 20a, Ethyl 5-(3-((2-methyl-4-(5-(trifluoromethyl)-1,2,4-oxadiazol-3-yl)phenyl)amino)-3-oxopropyl)isoxa-zole-3-carboxylate] | 95
Cc1cc(CN2CCN(c3ccc(-c4noc(C(F)(F)F)n4)cc3C)CC2)on1 [Compound 28b, 3-(3-Methyl-4-(4-((3-methylisoxazol-5-yl)methyl)piperazin-1-yl)phenyl)-5-(trifluoromethyl)-1,2,4-oxadiazole] | 59
Cc1cc(-c2noc(C(F)(F)F)n2)ccc1N1CCN(C(=O)c2cc(-c3ccccc3)no2)CC1 [Compound 35a, (4-(2-Methyl-4-(5-(trifluoromethyl)-1,2,4-oxadiazol-3-yl)phenyl)piperazin-1-yl)(3-phenylisoxazol--5-yl)methanone] | <2
CCOC(=O)c1cc(CCCSc2ccc(-c3noc(C(F)(F)F)n3)cc2C)on1 [Compound 6a, 3-(3-Methyl-4-((3-(3-carbethoxy-isoxazol-5-yl)propyl)thio)phenyl)-5-(trifluoromethyl)-1,2,4-oxadia-zole] | 23
Cc1cc(CCC(=O)Nc2ccc(-c3noc(C(F)(F)F)n3)cc2C)on1 [Compound 20b, N-(2-Methyl-4-(5-(trifluoromethyl)-1,2,4-oxadiazol-3-yl)phenyl)-3-(3-methylisoxazol-5-yl)propan-amide] | 23
Cc1cc(CCCSc2ccc(-c3noc(C(F)(F)F)n3)cc2C)on1 [Compound 6b, 3-(3-Methyl-4-((3-(3-methylisoxazol-5-yl)propyl)thio)phenyl)-5-(trifluoromethyl)-1,2,4-oxadiazole] | > 167
Cc1cc(CCCOc2c(C)cc(-c3noc(C(F)(F)F)n3)cc2C)on1 [Pleconaril] | 130
Cc1cc(-c2noc(C(F)(F)F)n2)ccc1NC(=O)CCc1cc(C(=O)N(C)C)no1 [Compound 21, N,N-dimethyl-5-(3-((2-methyl-4-(5-(trifluoromethyl)-1,2,4-oxadiazol-3-yl)phenyl)amino)-3-oxopro-pyl)isoxazole-3-carboxamide] | 248
Cc1cc(CCC(=O)Oc2ccc(-c3noc(C(F)(F)F)n3)cc2C)on1 [Compound 12b, 2-Methyl-4-(5-(trifluoromethyl)-1,2,4-oxadiazol-3-yl)phenyl 3-(3-methylisoxazol-5-yl)propanoate] | 35
Cc1cc(-c2noc(C(F)(F)F)n2)ccc1N1CCN(c2cc(C(=O)N(C)C)no2)CC1 [Compound 28a, N,N-Dimethyl-5-(4-(2-methyl-4-(5-(trifluoromethyl)-1,2,4-oxadiazol-3-yl)phenyl)piperazin-1-yl)iso-xazole-3-carboxamide] | 205
Cc1cc(-c2noc(C(F)(F)F)n2)ccc1N1CCN(C(=O)c2c(-c3ccccc3)noc2C)CC1 [Compound 35b, (5-Methyl-3-phenylisoxazol-4-yl)(4-(2-methyl-4-(5-(trifluoromethyl)-1,2,4-oxadiazol-3-yl)phenyl)pi-perazin-1-yl)methanone] | 125
CCOC(=O)c1cc(CCC(=O)Oc2ccc(-c3noc(C(F)(F)F)n3)cc2C)on1 [Compound 12a, Ethyl 5-(3-(2-methyl-4-(5-(trifluoromethyl)-1,2,4-oxadiazol-3-yl)phenoxy)-3-oxopropyl)-isoxazole-3-carboxylate] | 75
